Reference: paper PMC10127588 (mBio, 2023)

Tested on: Mps1 single mutants (Q31, K52, E70, D167, V37, L156 to alanine)
Conditions: SPR; except for E70 and D167 mutants

CNC(=O)[C@H](Cc1c[nH]c2ccccc12)NC(=O)c1ccc2cncc(-c3cc(OC(F)(F)F)ccc3OC)c2n1 [A378-0]
affinity to single mutants compared with Mps1: no obvious differences in affinity were observed
